Measured values from several laboratories, pooled; numbers as filed in NIAID ChemDB.

Common to all: target-level tests; organism: HIV-1; target: Integrase; measure: IC50

Blank or dashed fields: not listed here.

smiles,strain,method,conditions,result
CC(=O)Oc1ccc(S(=O)(=O)c2ccc(OC(C)=O)cc2)cc1,-,3′ processing,-,>100 µM
Nc1nc2ccc(N(Cc3cccc(Oc4ccccc4)c3)Cc3cccc(Oc4ccccc4)c3)cc2[nH]1,-,strand transfer,-,4.9 µM
CCC(CO)NC(=O)Nc1ccc(S(=O)(=O)c2ccc([N+](=O)[O-])cc2)cc1,-,strand transfer,-,>100 µM
COc1cc([C@H]2c3cc(O)c(OC)cc3C[C@H]3C(=O)OC[C@H]23)ccc1O,HXB2,strand transfer / radiometric,-,>35 µM
Nc1nc2ccccc2[nH]1,-,strand transfer,-,300 µM
O=C1C=CC(=O)c2c(O)cccc21,-,3′ processing / substrate cleavage,-,>100 µM
CN(C)C1C(=O)C(C(=O)NCNC2C(=O)N3C2SC(C)(C)C3C(=O)O)=C(O)C2(O)C(=O)C3=C(O)c4c(O)cccc4C(C)(O)C3CC12,RF,3′ processing,-,2.2 µM
CC[C@H](C)/C=C(C)/C=C/C1=CC2=C(Cl)C(=O)[C@](C)(OC(C)=O)C(=O)C2=CO1,-,-,-,14.5 µg/mL
CCC1CN(C(=O)OC)Cc2ccc([C@@H]3CC3c3ccc4cc(C(=N)N)ccc4c3)cc21,-,strand transfer,-,28 µM
O=C(O)C(=O)/C=C(\O)c1c[nH]c(=O)n(Cc2ccccc2)c1=O,-,3′ processing,-,10 µM
C[C@@H]1CC[C@@]23COC(=O)C2=CCCC3[C@@]1(C)CCC1=CCOC1=O,-,strand transfer / absorbance,-,39.7 µM
COC(=O)c1ccc2cc(/C=C/c3ccc(O)c(O)c3)oc2c1OC,-,3′ processing,-,43.8 µM
COC(=O)CC[C@]1(C)C2CCC=C(C(=O)O)[C@]2(C)CC[C@H]1C,-,strand transfer / absorbance,-,12.35 µM
O=C(O)[C@H](Cc1ccccc1)NC(=O)C1(c2ccc(F)cc2)CCN(Cc2ccc3ccccc3c2)CC1,NL4-3,strand transfer / fluorescence,pseudotyped,125 µM
CN(C)C1C(=O)C(C(=O)NCNCCC(=O)O)=C(O)C2(O)C(=O)C3=C(O)c4c(O)cccc4C(C)(O)C3CC12,RF,strand transfer,-,2.5 µM
CCCCC[C@H]1C(C)=C[C@H]2C[C@@H](C)CC[C@@H]2[C@@]1(C)/C(O)=C1/C(=O)[C@@H](CO)N(C)C1=O,-,strand transfer,-,15–20 µM
O=C(O)c1ccc2ccc(/C=C/c3ccc(O)c(O)c3)nc2c1O,-,3′ processing,-,18.9 µM
COc1ccc([C@H]2c3cc(O)c(O)cc3C[C@@H]3C(=O)OC[C@H]23)cc1OC,HXB2,strand transfer / radiometric,-,7 µM
O=C(/C=C/c1ccc(O)c(O)c1)O[C@H]1CCCC[C@@H]1OC(=O)/C=C/c1ccc(O)c(O)c1,-,3′ processing,-,24.8 µM
Nc1ccn(C2C[C@H](O)[C@@H](COP(=O)(O)O[C@H]3[C@H](n4cnc5c(N)ncnc54)CO[C@@H]3COP(=O)(O)O)O2)c(=O)n1,-,strand transfer,-,25 µM
O=C1NC(=O)C2(OC(=O)C(=O)/C2=C(\O)c2ccccc2)C(=O)N1,-,-,-,>100 µM
COc1ccc2[nH]c3ccc4cc[n+](CCN5CCC(C6CCN(CC[n+]7ccc8ccc9[nH]c%10ccc(OC)cc%10c9c8c7)CC6)CC5)cc4c3c2c1,-,3′ processing / substrate cleavage,-,0.9 µM
N=C(N)c1ccc2cc(C(=O)Nc3cccc(OC4CCCC4)c3)ccc2c1,-,strand transfer,-,24.5 µM
O=C(/C=C/c1ccc(O)c(O)c1/C=C/c1ccc(O)c(O)c1)OC(Cc1ccc(O)c(O)c1)C(=O)O,-,radiometric / fluorescence,-,0.4 µg/mL
[N-]=[N+]=[N-].[Na+],-,absorbance,-,<50 µg/mL
COC(=O)C(=O)C=C(O)c1ccc(Cc2ccc(F)cc2)o1,-,strand transfer,-,2.4 µg/mL
O=c1c(O)c(-c2cc(O)c(O)c(O)c2)oc2cc(O)ccc12,-,substrate cleavage,-,5.9 µM
O=C(CC1(O)C(=O)Nc2ccc(Br)cc21)c1ccccn1,-,-,-,>100 µM
C=CCN1CCc2ccc([C@@H]3CC3c3ccc4cc(C(=N)N)ccc4c3)cc2C1C(C)C,-,strand transfer,-,2.4 µM
CC[n+]1c(-c2ccccc2)c2cc(N)ccc2c2ccc(N)cc21,-,strand transfer,-,5.66 µM
CC(=O)Oc1ccc(/C=C/C(=O)O[C@H](C(=O)O)[C@H](OC(=O)/C=C/c2ccc(OC(C)=O)c(OC(C)=O)c2)C(=O)O)cc1OC(C)=O,IIIB,strand transfer,-,>78 µM
O=C(O)[C@H](Cc1ccccc1)NC(=O)C1(c2ccc3ccccc3c2)CCN(Cc2ccc3ccccc3c2)CC1,NL4-3,strand transfer / fluorescence,pseudotyped,>500 µM
O=C1OC[C@H]2[C@H](c3ccc(O)c(O)c3)c3cc(O)c(O)cc3C[C@H]12,HXB2,strand transfer / gel,-,0.5 µM
O=C(O)/C=C/c1ccc(O)c(O)c1,LAI,disintegration,-,>50 µg/mL
O=C(Nc1ccccc1)C(=S)Nn1c(O)c(/C=C2\C=Nc3ccccc32)sc1=S,-,strand transfer,-,>100 µM
C[C@@H]1CC[C@@]23COC(=O)C2=CCCC3[C@@]1(C)CCC1=CC(=O)OC1O,-,strand transfer / absorbance,-,34.66 µM
N=C(N)c1ccc2cc(C#Cc3ccc4ccc(-c5ccccc5)cc4c3)ccc2c1,-,strand transfer,-,3.2 µM
Cc1cn([C@H]2C[C@@H]3OP(=O)(O)OC[C@H]4O[C@@H](n5cnc6c(=O)[nH]c(N)nc65)C[C@@H]4OP(=O)(O)OC[C@H]3O2)c(=O)[nH]c1=O,-,strand transfer,-,>1000 µM
O=C1Sc2cc3ccccc3cc2C(=O)N2CSC[C@@H]12,-,strand transfer,-,88 µM
O=C(NCc1ccc(F)cc1)c1nc(N2CCCCS2(=O)=O)c2cccnc2c1O,-,-,-,0.01 µM
O=C(O)c1ccc2cc(/C=C/c3ccc(O)cc3)oc2c1O,-,3′ processing,-,>>100 µM
Cc1ccccc1Cc1cccc(C(=O)CC(=O)C(=O)O)c1,-,-,-,0.01 µM
C/C=C/[C@@H]1C=C[C@@H]2C[C@H](C)CC[C@H]2[C@]1(C)/C(O)=C1/C(=O)[C@H](CO)N(C)C1=O,-,strand transfer,-,15–20 µM
CN(C)[C@@H]1C(=O)C(C(N)=O)=C(O)[C@@]2(O)C(=O)C3=C(O)c4c(O)cccc4[C@@](C)(O)[C@H]3C[C@@H]12,RF,strand transfer,-,188 µM
C=CC(C)(C)O[C@H](C)[C@@H]1NC(=O)[C@H]2CSC(=N2)[C@@H](Cc2ccccc2)NC(=O)[C@@H]2CCCN2C(=O)[C@H](CO)NC(=O)C(CC(C)C)NC1=O,-,absorbance,-,>100 µg/mL
Nc1ccc(S(=O)(=O)c2ccc(N)cc2)cc1,-,3′ processing,-,>100 µM
COC(=O)c1ccc2cc(/C=C/c3ccc(OC)c(OC)c3)oc2c1OC,-,3′ processing,-,>>100 µM
CCN(CCO)CCCC(C)Nc1ccnc2cc(Cl)ccc12,-,strand transfer,-,>100 µM
COc1c(C(=O)O)ccc2cc(/C=C/c3ccc(O)cc3)oc12,-,3′ processing,-,>>100 µM
CSCC[C@H](NCC(=O)Nc1ccc(S(=O)(=O)c2ccc(NC(=O)CN[C@@H](CCSC)C(=O)O)cc2)cc1)C(=O)O,-,strand transfer,-,>100 µM
O=C(/C=C/c1ccc(O)c(O)c1)O[C@@H]1CC(O)(C(=O)O)C[C@@H](OC(=O)/C=C/c2ccc(O)c(O)c2)C1O,LAI,strand transfer,-,0.34 ± 0.22 µg/mL
O=c1c(O)c(-c2ccc(O)c(O)c2)oc2cc(O)ccc12,-,substrate cleavage,-,28.4 µM
O=C(O)[C@H](CCCC(F)(F)F)NC(=O)C1(c2ccc3ccccc3c2)CCN(Cc2ccccc2)CC1,NL4-3,strand transfer / fluorescence,pseudotyped,337.8 µM
O=[N+]([O-])c1cc(Cl)ccc1S(=O)(=O)c1ccccc1,-,3′ processing,-,87.5 µM
CCCCC[C@@H]1C=C[C@@H]2C[C@H](C)CC[C@H]2[C@]1(C)/C(O)=C1/C(=O)[C@H](CO)N(C)C1=O,-,strand transfer,-,5 µM
NC(CCSSCCC(N)P(=O)(O)O)P(=O)(O)O,RF,strand transfer,-,294 µM
CCCCCCCCCCCCCCCCCCCCCCC(=O)O[C@@H]1[C@@H](C)[C@@]2(O)[C@@H](C=C(COC(C)=O)C[C@]3(O)C(=O)C(C)=C[C@@H]23)[C@@H]2C(C)(C)[C@]12O,-,absorbance,-,>67.5 µM
CC[C@@]1(O)C(=O)OCc2c1cc1n(c2=O)Cc2cc3ccccc3nc2-1,-,strand transfer,-,>100 µM
Cc1ccc(S(=O)(=O)c2c(C)cc(C)cc2C)cc1,-,3′ processing,-,>100 µM
COc1cccc2c1C(=O)c1c(O)c3c(c(O)c1C2=O)C[C@@](O)(C(=O)CO)C[C@@H]3O[C@H]1C[C@H](O)[C@H](O)[C@H](C)O1,-,strand transfer,-,11.3 µM
O=S(=O)(O)c1ccc2c(N=Nc3cccc4ccccc34)c(O)c(S(=O)(=O)O)cc2c1,-,-,-,83.6 µM
Nc1nc2ccc(NCc3cccc(Oc4ccccc4)c3)cc2[nH]1,-,strand transfer,-,93 µM

For reference, 5 entries again:

smiles,strain,method,conditions,result
N=C(N)c1ccc2cc(C#Cc3ccc4ccc(-c5ccccc5)cc4c3)ccc2c1,-,strand transfer,-,3.2 µM
CCC(CO)NC(=O)Nc1ccc(S(=O)(=O)c2ccc([N+](=O)[O-])cc2)cc1,-,strand transfer,-,>100 µM
Cc1ccccc1Cc1cccc(C(=O)CC(=O)C(=O)O)c1,-,-,-,0.01 µM
C=CCN1CCc2ccc([C@@H]3CC3c3ccc4cc(C(=N)N)ccc4c3)cc2C1C(C)C,-,strand transfer,-,2.4 µM
CN(C)[C@@H]1C(=O)C(C(N)=O)=C(O)[C@@]2(O)C(=O)C3=C(O)c4c(O)cccc4[C@@](C)(O)[C@H]3C[C@@H]12,RF,strand transfer,-,188 µM

ICn is the concentration giving n% inhibition. Two numbers with a dash give a range or band. Lines come from different laboratories, so protocols vary.